Data on 1 compound can be found in ChEMBL document CHEMBL6120945, “Peptidomimetic Analogues Act as Effective Inhibitors against SARS-CoV-2 by Blocking the Function of Cathepsin L” (J Med Chem, 2024).

Protein sequences, listed by entry. Tags and fused reporters are not part of them.
UniProt P25774, whole entry, looked up: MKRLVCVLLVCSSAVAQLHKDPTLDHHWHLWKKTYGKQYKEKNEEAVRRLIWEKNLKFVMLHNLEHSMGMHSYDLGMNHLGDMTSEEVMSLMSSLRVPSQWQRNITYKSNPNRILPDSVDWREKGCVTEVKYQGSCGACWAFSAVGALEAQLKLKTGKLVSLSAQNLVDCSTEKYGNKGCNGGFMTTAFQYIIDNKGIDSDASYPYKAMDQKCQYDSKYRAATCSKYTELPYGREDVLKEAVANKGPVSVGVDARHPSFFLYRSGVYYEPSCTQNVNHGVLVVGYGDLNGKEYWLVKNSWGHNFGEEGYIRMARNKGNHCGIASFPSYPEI

Test [1] deals with Cathepsin S (Homo sapiens) (UniProt P25774). The test can be described thus: Binding affinity to Cathepsin S (unknown origin) assessed as Kinact/Ki ratio by Morrison equation based analysis.
The target in test [2] is T1, Cathepsin L2 (Homo sapiens) (UniProt O60911).
T1 sequence (whole entry): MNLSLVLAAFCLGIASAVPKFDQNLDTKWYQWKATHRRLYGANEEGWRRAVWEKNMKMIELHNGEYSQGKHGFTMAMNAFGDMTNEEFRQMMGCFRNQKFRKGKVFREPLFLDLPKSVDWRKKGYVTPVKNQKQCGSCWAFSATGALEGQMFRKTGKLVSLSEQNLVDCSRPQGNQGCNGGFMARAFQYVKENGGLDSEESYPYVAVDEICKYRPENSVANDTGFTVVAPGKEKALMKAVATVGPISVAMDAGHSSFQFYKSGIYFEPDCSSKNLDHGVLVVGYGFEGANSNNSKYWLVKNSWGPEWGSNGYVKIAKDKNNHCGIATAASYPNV
Put plainly: Binding affinity to Cathepsin V (unknown origin) assessed as Kinact/Ki ratio by Morrison equation based analysis.

For test [3], the species on record is Homo sapiens. The test can be described thus: Binding affinity to human recombinant Cathepsin L-like protease using Z-FR-AMC as substrate assessed as Kinact/Ki ratio preincubated for 30 mins followed by substrate addition and measured after 1 hr by Morrison equation based analysis. The following applies: time 1.5 hrs.
For test [4], the target named is Cathepsin B (Homo sapiens, UniProt P07858). The test can be described thus: Binding affinity to Cathepsin B (unknown origin) assessed as Kinact/Ki ratio by Morrison equation based analysis.

In the case of `O=C(N[C@@H](Cc1ccc(F)cc1)C(=O)N[C@@H](Cc1ccccc1)C(=O)CCl)c1cccc2ccccc12`, the Ratio is 1.92 10^3/s/M in test [1], 5.36 10^4/s/M in test [2], 6.83 10^6/s/M in test [3] and 5.39 10^3/s/M in test [4].
